The data set concerns promastigote forms of L. braziliensis. The data set can be described thus: In vitro IC50 determination (leishmanicidal activity, MTT/PMS). The class given is cell-based. The note with it: ratio of IC50 against mammalian cells and IC50 against promastigote cells. The procedure: Amphotericin 100 μM/well and 0.5% DMSO were used as positive and negative control, respectively. The plates were incubated at RT for 72 h. After this, the viability of the promastigotes was verified by MTT/PMS colorimetric assay, as described above. In vitro leishmanicidal activity, expressed as IC50, was determined using GraphPad Prism 5 software according to the following equation: (2) y= Amin + Amax−Amin/1+10^logIC50 −x*Hillslope where Amin and Amax are, respectively, the minimum and maximum activities obtained, x is the ligand concentration and Hill Slope is the parameter that describes the steepness of the curve.
The selectivity index parameter was obtained by the ratio of compound IC50 against mammalian cells and compound IC50 against promastigote cells.
For the compound `N=C(N)Nc1nc(-c2ccccc2)c2ccccc2n1` [Glb08], the Selectivity index was found to be 1.7.
For `N=C(N)NCc1cn(-c2ccccc2)nc1-c1ccccc1` [Glb14], the Selectivity index is recorded as above 6.7.
With `N=C(N)NN=Cc1cnn(Cc2ccccc2)c1` [Glb15] the figure was above 2.8; with `N=C(N)NCc1ccc(Oc2ccc(F)cc2)cc1` [Glb16], 1.9.
As to `Cc1cccc(Oc2ccccc2CNC(=N)N)c1` [Glb17], the Selectivity index is recorded as 14.5.
With `N=C(N)SCc1nc2ccccc2c(=O)n1-c1ccccc1` [Glb23] the figure was below 0.5; with `Cc1cc(CSC(=N)N)c2oc(-c3ccccc3)cc(=O)c2c1` [Glb25], below 0.05; with `N=C(N)NN=Cc1ccc2cccc(OCc3ccccc3)c2n1` [Glb27], 1.2.

For the origin of these results see publication PMC7034072, “Discovery of small molecule inhibitors of Leishmania braziliensis Hsp90 chaperone” (Journal of Enzyme Inhibition and Medicinal Chemistry, 2020).
